Results of unrelated studies side by side (data: NIAID ChemDB).

Common to all: whole-cell or culture tests; agent: Herpes simplex virus 1; read-out: EC50

Lines come from different laboratories, so protocols vary. An empty or dashed field is not shown. ECn: concentration that inhibits the pathogen or its effect by n%.

structure | method | strain | cells | result
CC(C)CS[C@@H]1C[C@H](n2cnc3c(N)ncnc32)[C@@H](O)[C@H]1O | cytopathic effect | KOS | E6SM | >80 µg/mL
CC(Sc1ncnc2c1cnn2COCC(O)CO)C(N)=O | cytopathic effect | KOS | E6SM | >400 µg/mL
CO[C@@H]1[C@H](O)[C@@H](CO)O[C@H]1n1cnc2c(N)ncnc21 | cytopathic effect |  | PRK | >100 µg/mL
CCc1cn([C@H]2C[C@H](O)[C@@H](COP(=O)(O)O)O2)c(=O)[nH]c1=O | cytopathic effect | B2006 (TK-) | HSF | ≥820 µg/mL
Nc1nc(Cl)c2ncn([C@H]3CO[C@@H](CO)C3)c2n1 | cytopathic effect | VMW1837 (TK-) | E6SM | 300 µg/mL
Nc1nc2c(ncn2COC(CO)CO)c(=O)[nH]1 | cytopathic effect | KOS | Human embryonic lung fibroblasts | 0.05 µM
CCOP(=O)(OCC)C1=NOC(Cn2cc(C)c(=O)[nH]c2=O)C1 | plaque count |  | VERO | >400 µM
Nc1ncnc2c1ncn2[C@@H]1O[C@H](CO)[C@@H](O)[C@@H]1O | cytopathic effect | KOS | HEL | 50 µg/mL
CCC(Sc1ncnc2c1cnn2CCCCO)C(N)=O | cytopathic effect | VWM1837 (TK-) | E6SM | >400 µg/mL
Nc1ccn(C[C@@H](CO)OCP(=O)(O)O)c(=O)n1 | plaque count |  | MRC-5 | 22.5 µM
CC(=O)N[C@H]1C[C@@H](n2cnc3c(N)ncnc32)[C@H](O)[C@@H]1O |  |  | HFF | >100 µg/mL
COc1ncnc2c1cnn2Cc1cn(CCCCO)nn1 |  | VWM1837 | E6SM | >400 µg/mL
CCc1c(CN)c(CC)c(CN)c(CC)c1CN | cytopathic effect | TK- KOS ACVr | Human embryonic lung fibroblasts | >100 µM
COc1nc(=O)n([C@H]2C[C@H](O)[C@@H](CO)O2)cc1/C=C/Cl | cytopathic effect | KOS | PRK | 0.2 µg/mL
Nc1nc2c(ncn2[C@@H]2O[C@H](CO)[C@@H](O)[C@H]2O)c(=O)o1 | plaque count |  | VERO | 0.24 µM
Nc1nc(=O)n([C@@H]2O[C@H](CO)[C@@H](O)[C@@H]2F)cc1I | cytopathic effect | KOS | VERO | 0.2 µg/mL
CCOP(=O)(OCC)C1=NOC(Cn2cc(F)c(=O)[nH]c2=O)C1 | plaque count |  | VERO | >400 µM
Nc1nc2c(ncn2C[C@]2(CO)C[C@H]2CO)c(=O)[nH]1 | cytopathic effect | TK- | VERO | ≥70 µg/mL
CCC(Sc1ncnc2c1cnn2COCCO)C(N)=O | cytopathic effect | VWM1837 (TK-) | E6SM | >400 µg/mL
CCCCC(C)(C)[C@H](O)/C=C/[C@H]1C=CC(=O)[C@@H]1CCCCCCC(=O)O | hybridisation | KOS | VERO | 5.5 µg/mL
CC(=O)OCCOCn1cnc2c(=O)oc(N)nc21 | plaque count |  | VERO | 420 µM
OCCCCn1cc(Cn2ncc3c(SCc4ccccc4)ncnc32)nn1 |  | B2006 (TK-) | E6SM | >400 µg/mL
NC(=O)CSc1ncnc2c1cnn2CCCCO | cytopathic effect | B2006 (TK-) | E6SM | >400 µg/mL
Nc1ncnc2c1ncn2[C@@H]1O[C@H](CO)[C@@H](O)[C@@H]1O | cytopathic effect |  | PRK | 3 µg/mL
Nc1nc2c(ncn2COCCO)c(=O)[nH]1 | plaque count | McKrae | VERO | 0.6 µM
Nc1nc2c(ncn2COCCO)c(=O)[nH]1 | cytopathic effect | 13231WL KOS (acyclovir-susceptible) | HFF | 1 µg/mL
CCCCCCCCCCCCCCCCCCOCCOP(=O)(O)CO[C@H](CO)Cn1ccc(N)nc1=O | plaque count |  | MRC-5 | 0.03 µM
Nc1nc(=O)n([C@H]2C[C@H](O)[C@@H](CO)O2)cc1/C=C/Cl | cytopathic effect | B2006 (TK-) | PRK | >400 µg/mL
CNc1ncnc2c1cnn2Cc1cn(CCCCO)nn1 |  | KOS | E6SM | >400 µg/mL
O=C(NCc1ccc(Cl)cc1)c1c[nH]c2c(F)cccc2c1=O | plaque count | Patton |  | 40 µM
CCCc1cn([C@H]2C[C@H](O)[C@@H](CO)O2)c(=O)[nH]c1=O | cytopathic effect | F | PRK | 4.8 µg/mL
Nc1ncnc2c1ncn2N1C[C@H](CO)[C@H]1CO | cytopathic effect |  | VERO | 33.2 µg/mL
Nc1nc2c(ncn2COCCO)c(=O)[nH]1 | cytopathic effect | KOS | HEP-2 | 2 µg/mL
c1c[nH]c(CNCc2cc(CNCc3ccc[nH]3)c(CNCc3ccc[nH]3)cc2CNCc2ccc[nH]2)c1 | cytopathic effect | KOS | Human embryonic lung fibroblasts | >100 µM
Nc1ccn([C@@H]2O[C@H](CO)[C@@H](O)[C@@H]2O)c(=O)n1 | cytopathic effect | KOS | PRK | 0.05 µg/mL
CCCNCc1ccc(CNCc2c(CC)c(CNCc3ccc(CNCCC)[nH]3)c(CC)c(CNCc3ccc(CNCCC)[nH]3)c2CC)[nH]1 | cytopathic effect | TK- KOS ACVr | Human embryonic lung fibroblasts | >20 µM
CCCCCCCCCCCCCCCCOCCCOP(=O)(O)CO[C@H](CO)Cn1ccc(N)nc1=O |  |  | MRC-5 | 0.0001 µM
Nc1nc2c(ccn2[C@H]2CO[C@@H](CO)C2)c(=O)[nH]1 | cytopathic effect | KOS | E6SM | 150 µg/mL